Results of unrelated studies side by side (data: NIAID ChemDB).

Shared fields: tests in culture; species: Aspergillus fumigatus

ECn is the concentration giving n% inhibition of infection, replication or growth.

O/N=C/c1cccc[n+]1Cc1ccc(C[n+]2ccccc2/C=N/O)s1.[Cl-].[Cl-] ; read by: broth dilution ; read-out: EC50 ; value: >20 µg/mL
C[C@@H](c1ncncc1F)[C@](O)(Cn1cncn1)c1ccc(F)cc1F ; strain: EMC 1 ; read by: broth dilution ; read-out: MIC ; value: 0.5 µg/mL
C[C@H]1[C@H](O)[C@@H](C)/C=C/C=C/C=C/C=C/C=C/C=C/C=C/[C@H](O[C@@H]2O[C@H](C)[C@@H](O)[C@H](N)[C@@H]2O)C[C@@H]2O[C@](O)(C[C@@H](O)C[C@@H](O)CC[C@H](O)[C@@H](O)C[C@@H](O)CC(=O)O[C@H]1C)C[C@H](O)[C@H]2C(=O)O ; strain: 25 isolates ; read-out: MIC90 ; value: 1 µg/mL
Nc1ncccc1-c1cc(Cc2ccc(COc3ccccn3)cc2)no1 ; strain: IFM 51126 ; read by: broth dilution ; read-out: MIC50 ; conditions: 10% human serum ; value: 0.25 µg/mL
CCC(C)n1ncn(-c2ccc(N3CCN(c4ccc(OC[C@H]5CO[C@](Cn6cncn6)(c6ccc(Cl)cc6Cl)O5)cc4)CC3)cc2)c1=O ; strain: 256 isolates ; read-out: MIC90 ; value: 2 µg/mL
O=Cc1cc(-c2ccc(Cl)cc2Cl)on1 ; strain: Clinical isolates ; read-out: EC50 ; value: 38.82 µg/mL
CCC(C)n1ncn(-c2ccc(N3CCN(c4ccc(OC[C@H]5CO[C@](Cn6cncn6)(c6ccc(Cl)cc6Cl)O5)cc4)CC3)cc2)c1=O ; strain: MRCM 32208 ; read by: broth dilution / visual reading ; read-out: MIC100 ; value: >8 µg/mL
CC[C@@H]([C@H](C)O)n1ncn(-c2ccc(N3CCN(c4ccc(OC[C@@H]5CO[C@@](Cn6cncn6)(c6ccc(F)cc6F)C5)cc4)CC3)cc2)c1=O ; strain: 256 isolates ; read-out: MIC50 ; value: 0.25 µg/mL
CC(C)C[C@H](N)C(=O)O ; strain: MRCM 32552 ; read by: broth dilution ; read-out: MFC100 ; value: >18000 µg/mL
C[C@H]1[C@H](O)[C@@H](C)/C=C/C=C/C=C/C=C/C=C/C=C/C=C/[C@H](O[C@@H]2O[C@H](C)[C@@H](O)[C@H](N)[C@@H]2O)C[C@@H]2O[C@](O)(C[C@@H](O)C[C@@H](O)CC[C@H](O)[C@@H](O)C[C@@H](O)CC(=O)O[C@H]1C)C[C@H](O)[C@H]2C(=O)O ; strain: Isolate AF65 ; read-out: MEC ; value: 1 µg/mL
C[C@@H](c1ncncc1F)[C@](O)(Cn1cncn1)c1ccc(F)cc1F ; strain: 28 isolates ; read-out: MIC50 ; value: 0.06 µg/mL
CN1CCN(c2n[nH]c(N3C(=O)CS[C@@H]3c3ccccc3)n2)CC1 ; strain: 168.95 ; read by: broth dilution ; read-out: MIC ; value: 100 µg/mL
Cc1onc(-c2ccc(F)cc2)c1C=O ; strain: Clinical isolates ; read-out: MIC ; value: 25 µg/mL
CCCCCOc1ccc(-c2ccc(-c3ccc(C(=O)N[C@H]4C[C@@H](O)[C@@H](O)NC(=O)[C@@H]5[C@@H](O)[C@@H](C)CN5C(=O)[C@H]([C@H](C)O)NC(=O)[C@H]([C@H](O)[C@@H](O)c5ccc(O)cc5)NC(=O)[C@@H]5C[C@@H](O)CN5C(=O)[C@H]([C@H](C)O)NC4=O)cc3)cc2)cc1 ; strain: 92-270 ; read-out: MIC ; value: >50 µg/mL
C[C@@H](c1ncncc1F)[C@](O)(Cn1cncn1)c1ccc(F)cc1F ; strain: 25 isolates ; read-out: MIC50 ; value: 0.12 µg/mL
NC(=O)c1cc[n+](Cc2ccc(C[n+]3ccc(/C=N/O)cc3)s2)cc1.[Cl-].[Cl-] ; read by: broth dilution ; read-out: EC50 ; value: >20 µg/mL
C[C@@H](c1ncncc1F)[C@](O)(Cn1cncn1)c1ccc(F)cc1F ; strain: 256 isolates ; read-out: MIC90 ; value: 0.5 µg/mL
ON=Cc1ccc[n+](Cc2csc3ccccc23)c1.[Cl-] ; read by: broth dilution ; read-out: EC50 ; value: >20 µg/mL
CCCCCOc1ccc(-c2cc(-c3ccc(C(=O)N[C@H]4C[C@@H](O)[C@@H](O)NC(=O)[C@@H]5[C@@H](O)[C@@H](C)CN5C(=O)[C@H]([C@H](O)CC(N)=O)NC(=O)[C@H]([C@H](O)[C@@H](O)c5ccc(O)c(OS(=O)(=O)O)c5)NC(=O)[C@@H]5C[C@@H](O)CN5C(=O)[C@H]([C@@H](C)O)NC4=O)cc3)no2)cc1 ; read by: broth dilution ; read-out: MIC90 ; value: 0.06 µg/mL
O=Cc1cc(-c2ccccc2Cl)no1 ; strain: Clinical isolates ; read-out: MIC ; value: >50 µg/mL
C[C@H]1[C@H](O)[C@@H](C)/C=C/C=C/C=C/C=C/C=C/C=C/C=C/[C@H](O[C@@H]2O[C@H](C)[C@@H](O)[C@H](N)[C@@H]2O)C[C@@H]2O[C@](O)(C[C@@H](O)C[C@@H](O)CC[C@H](O)[C@@H](O)C[C@@H](O)CC(=O)O[C@H]1C)C[C@H](O)[C@H]2C(=O)O ; read-out: MIC90 ; value: 0.39 µg/mL
Cc1onc(-c2ccc(Cl)cc2Cl)c1C=O ; strain: Clinical isolates ; read-out: EC50 ; value: 18.78 µg/mL
O=C1CS[C@H](c2ccc3c(c2)OCO3)N1c1nc(N2CCOCC2)n[nH]1 ; strain: 168.95 ; read by: broth dilution ; read-out: MIC ; value: 33.4 µg/mL
Cc1onc(-c2ccccc2Cl)c1C=O ; strain: Clinical isolates ; read-out: EC50 ; value: 48.76 µg/mL
COc1cc(O)c2c(c1)C(=O)c1c(cc3c(c1O)-c1c(cc(C)c(C(=O)NC(CO)C(=O)O)c1O)[C@H](OC1OC(C)C(O)C(OC4OCC(O)C(O)C4O)C1O)C3O)C2=O ; strain: 35 isolates ; read-out: MIC90 ; value: 8 µg/mL
CCN1CCC(O)(/C=C/c2ccc(Cl)cc2)C(C(=O)/C=C/c2ccc(Cl)cc2)C1 ; strain: 20 strains ; read-out: Mean MIC ; value: 5.54 µg/mL
C[C@H]1[C@H](O)[C@@H](C)/C=C/C=C/C=C/C=C/C=C/C=C/C=C/[C@H](O[C@@H]2O[C@H](C)[C@@H](O)[C@H](N)[C@@H]2O)C[C@@H]2O[C@](O)(C[C@@H](O)C[C@@H](O)CC[C@H](O)[C@@H](O)C[C@@H](O)CC(=O)O[C@H]1C)C[C@H](O)[C@H]2C(=O)O ; read-out: MIC ; value: 0.03 µg/mL
CN1CCN(c2n[nH]c(N3C(=O)CS[C@@H]3c3ccc4c(c3)OCO4)n2)CC1 ; strain: 153.9 ; read by: broth dilution ; read-out: MIC ; value: 50 µg/mL
C[C@@H](c1nc(-c2ccc(C#N)cc2)cs1)[C@](O)(Cn1cnnc1)c1ccc(F)cc1F ; strain: 50 strains ; read-out: Mean MIC ; value: 1.71 µg/mL
C[C@@H](c1ncncc1F)[C@](O)(Cn1cncn1)c1ccc(F)cc1F ; read-out: MLC90 ; value: 0.5 µg/mL
O/N=C/c1ccc[n+](Cc2cc(C[n+]3cccc(/C=N/O)c3)on2)c1.[Br-].[Br-] ; read by: broth dilution ; read-out: EC50 ; value: >20 µg/mL
Fc1cc(F)c(OCc2nc3c(OCCCNCc4cccnc4)cccc3o2)c(F)c1 ; read-out: MIC80 ; value: >64 µg/mL
CCC(C)n1ncn(-c2ccc(N3CCN(c4ccc(OC[C@H]5CO[C@](Cn6cncn6)(c6ccc(Cl)cc6Cl)O5)cc4)CC3)cc2)c1=O ; strain: 19 isolates ; read-out: MFC50 ; value: 1 µg/mL
Cc1onc(-c2ccc(Cl)cc2)c1C=O ; strain: Clinical isolates ; read-out: MIC ; value: 25 µg/mL

Neighbouring rows are from separate reports. MIC50, MIC90 and the like: level of inhibition, or share of isolates inhibited.